Measurements published in patent US20230391835A1 (Pfizer, published 2023).
Numbering of substitutions follows the chain as printed.

How the values were obtained:
[1] = molecular target: L44905-86-19 Triple mutant toxin B (SEQ ID NO: 6), Rxn3, 25 C, day7 (Clostridium difficile (strain 630))
[2] = molecular target: L44905-86-09 Triple mutant toxin B (SEQ ID NO: 6), Rxn1, 25 C, day 5 (Clostridium difficile (strain 630))
[3] = molecular target: L44905-86-18 Triple mutant toxin B (SEQ ID NO: 6), Rxn3, 10 C, day7 (Clostridium difficile (strain 630))
[4] = molecular target: L44905-86-16 Triple mutant toxin B (SEQ ID NO: 6), Rxn2, 10 C, day7 (Clostridium difficile (strain 630))
[5] = molecular target: L44905-86-13 Triple mutant toxin B (SEQ ID NO: 6), Rxn3, 25 C, day5 (Clostridium difficile (strain 630))
[6] = molecular target: L44905-86-05 Triple mutant toxin B (SEQ ID NO: 6), Rxn2, 25 C, day1 (Clostridium difficile (strain 630))
[7] = molecular target: L44905-86-11 Triple mutant toxin B (SEQ ID NO: 6), Rxn2, 25 C, day5 (Clostridium difficile (strain 630))
[8] = molecular target: L44905-86-17 Triple mutant toxin B (SEQ ID NO: 6), Rxn2, 25 C, day7 (Clostridium difficile (strain 630))
[9] = molecular target: L44905-86-03 Triple mutant toxin B (SEQ ID NO: 6), Rxn1, 25 C, day1 (Clostridium difficile (strain 630))
[10] = molecular target: L44905-86-15 Triple mutant toxin B (SEQ ID NO: 6), Rxn1, 25 C, day7 (Clostridium difficile (strain 630))
[11] = molecular target: L44905-86-12 Triple mutant toxin B (SEQ ID NO: 6), Rxn3, 10 C, day5 (Clostridium difficile (strain 630))
[12] = molecular target: L44905-86-02 Triple mutant toxin B (SEQ ID NO: 6), Rxn1, 10 C, day1 (Clostridium difficile (strain 630))
[13] = molecular target: L44905-86-06 Triple mutant toxin B (SEQ ID NO: 6), Rxn3, 10 C, day 1 (Clostridium difficile (strain 630))
[14] = molecular target: L44905-86-07 Triple mutant toxin B (SEQ ID NO: 6), Rxn3, 25 C, day 1 (Clostridium difficile (strain 630))
[15] = molecular target: L34346-30B, EDC/NHS-treated triple mutant toxin B (SEQ ID NO: 6), glycine added (Clostridium difficile (strain 630))
[16] = molecular target: L34346-30A, EDC/NHS-treated triple mutant toxin B (SEQ ID NO: 6) (Clostridium difficile (strain 630))
[17] = molecular target: L44905-86-14 Triple mutant toxin B (SEQ ID NO: 6), Rxn1, 10 C, day7 (Clostridium difficile (strain 630))
[18] = molecular target: L44905-86-08 Triple mutant toxin B (SEQ ID NO: 6), Rxn1, 10 C, day 5 (Clostridium difficile (strain 630))
[19] = molecular target: L44905-86-10 Triple mutant toxin B (SEQ ID NO: 6), Rxn2, 10 C, day5 (Clostridium difficile (strain 630))
[20] = molecular target: L44905-86-04 Triple mutant toxin B (SEQ ID NO: 6), Rxn2, 10 C, day1 (Clostridium difficile (strain 630))
[21] = molecular target: Toxoid B (List Biologicals), formalin-inactivated wild-type toxin B (Clostridium difficile, UniProt P18177 2-2366); assay: dot blot; FI Toxoid B (List Biological)
[22] = molecular target: Commercial, FI Toxoid B (List Biologicals) (Clostridium difficile, UniProt P18177 2-2366); assay: dot blot, non-denaturing conditions; commercial FI Toxoid B (List Biologicals)

Measured: binding result

B1: B59-3 mAb (C. difficile TcdB neutralizing antibody) (antibody, V domains shown)
VH: QVQLQQPGAELVKPGASVKLSCKASGYTFTSYWMHWVKQRPGQGLEWIGVINPSNGRSTYSEKFKTTATVTVDKSSSTAYMQLSILTSEDSAVYYCARAYYSTSYYAMDYWGQGTSVTVSS
VL: VLMTQSPLSLPVSLGDQASISCRSSQNIVHSNGNTYLEWYLQKPGQSPKLLIYKVSNRFSGVPDRFSGSGSGTYFTLKISRVEAEDLGVYYCFQGSHFPFTFGTGTKLEIKR
binds: [1] | [2] | [3] | [4] | [5] | [6] | [7] | [8] | [9] | [10] | [11] | [12] | [13] | [14] | [15] | [16] | [17] | [18] | [19] | [20]

B2: B9-30 mAb (antibody, V domains shown)
VH: QVQLQQPGAEVVKPGAPVKLSCKASGYPFTNYWMNWVKQRPGRGLEWIGRIDPSNSEIYYNQKFKDKATLTVDKSSSTAYIQLSSLTSEDSAVYYCASGHYGSIFAYWGQGTTLTVSS
VL: VQITQSPSYLAASPGETITINCRASKSISKYLAWYQEKPGKTNKLLIYSGSTLQSGIPSRFSGSRSGTDFTLIISSLEPEDSAMYYCQQHNEYPLTFGAGTKLELKR
binds: [21]

B3: B8-26 mAb (C. difficile TcdB neutralizing antibody) (antibody, V domains shown)
VH: B2 VH with V11L, P28S, N31S
VL: B2 VL with I47L
binds: [1] | [2] | [3] | [4] | [5] | [6] | [7] | [8] | [9] | [10] | [11] | [12] | [13] | [14] | [15] | [16] | [17] | [18] | [19] | [20]

B4: B9-30 mAb (C. difficile TcdB neutralizing antibody) (antibody, V domains shown)
VH: B2 VH
VL: B2 VL
binds: [22]
